Measured values from several laboratories, pooled; numbers as filed in NIAID ChemDB.

Percent inhibition refers to the dose given; in toxicity tests it is the harm to the cells. Fold resistance has wild type as its base. ECn: concentration that inhibits the pathogen or its effect by n%. Blank or dashed fields: not listed here. Neighbouring rows are from separate reports. ICn: concentration for n% inhibition. MIC50, MIC90 and the like: level of inhibition, or share of isolates inhibited.

structure | read by | strain | cell line | read-out | mutations | kind | target | dose | agent | result
CCOC(=O)Nc1cc2c(c(N)n1)N=C(c1ccc(OC)cc1)CO2 | - | - | RK-13 | inhibition | - | culture | - | 0.1 µg/mL | Encephalitozoon intestinalis | 80.9%
CN(CC(C)(CCN1CCC(N(CCO)C(=O)OCc2ccc([N+](=O)[O-])cc2)CC1)c1ccsc1)S(=O)(=O)c1ccccc1 | radiometric | - | - | IC50 | CCR5-Y108A | target | CCR5 | - | - | 0.75 µM
CCO/N=C/c1ccc(OCCC2CCN(c3ccc(C)nn3)CC2)cc1 | neutral red | B632 (LDL receptor group 1B) | KB | EC50 | - | culture | - | - | Rhinovirus | 0.016 µM
NS(=O)(=O)c1ccc(CCNc2nnc(NC(=O)c3ccc(Br)cc3)s2)cc1 | - | - | - | IC50 | - | target | Polymerase | - | Human cytomegalovirus | <25 µM
C#CC[C@@H](C(=O)N[C@H](/C=C/C(=O)OCC)C[C@@H]1CCNC1=O)n1cccc(NC(=O)c2cc(C)on2)c1=O | cytopathic effect / XTT | Serotype 1A | H1-HELA | inhibition | - | culture | - | 0.078 µM | Rhinovirus | 90%
O=C(Nc1ncc([N+](=O)[O-])s1)c1ccccc1O | - | - | RK-13 | inhibition | - | culture | - | 0.001 µg/mL | Encephalitozoon intestinalis | 27.2%
Cc1cn([C@H]2C=C[C@@H](COP(=O)(O)OP(=O)(O)OP(=O)(O)O)O2)c(=O)[nH]c1=O | nucleotide incorporation / radiometric | - | - | fold resistance | RT-N137K | target | Reverse transcriptase | - | HIV | 17.4
CCCSc1ccc2nc(NC(=O)OC)[nH]c2c1 | - | - | RK-13 | inhibition | - | culture | - | 0.001 µg/mL | Encephalitozoon intestinalis | 2%
O=C(c1ccccc1Cl)N1C[C@H](CN2CCC(O)(CCCc3ccc(-c4nn[nH]n4)cc3)CC2)[C@@H](c2ccccc2)C1 | radiometric | - | - | IC50 | CCR5-Y37A | target | CCR5 | - | - | 0.01 µM
O=C(Nc1nnc(NCCc2cnc[nH]2)s1)c1cc2ccccc2s1 | - | - | - | IC50 | - | target | Polymerase | - | Human cytomegalovirus | >25 µM
O=C(NC(=O)c1c(F)cccc1F)Nc1cc(Cl)c(OC(F)(F)C(F)C(F)(F)F)cc1Cl | - | - | RK-13 | inhibition | - | culture | - | 5 µg/mL | Encephalitozoon intestinalis | 54.1%
CCCCCCCCCCCNc1nnc(NC(=O)c2c(Cl)cccc2Cl)s1 | - | - | - | IC50 | - | target | Polymerase | - | Human cytomegalovirus | >25 µM
CC[C@H]1C(=O)Nc2ccc(F)cc2N1C(=O)OC(C)C | nucleotide incorporation / radiometric | - | - | fold resistance | RT-N137K | target | Reverse transcriptase | - | HIV | 1.8
NS(=O)(=O)c1ccc(CNc2nnc(NC(=O)c3cc4ccccc4s3)s2)cc1 | - | - | - | IC50 | - | target | Polymerase | - | Human cytomegalovirus | >25 µM
CCOC(=O)Nc1cc2c(cn1)N=C(c1ccccc1)[C@H](C)N2 | - | - | RK-13 | inhibition | - | culture | - | 0.1 µg/mL | Encephalitozoon intestinalis | 58.4%
CC(C)c1cc(C(C)C)c(C(=O)Nc2nnc(NCCNc3ccccc3)s2)c(C(C)C)c1 | - | - | - | IC50 | - | target | Polymerase | - | Human cytomegalovirus | >25 µM
CCOC(=O)Nc1cc(NC(C)/C(=N/O)c2ccccc2)c([N+](=O)[O-])c(N)n1 | - | - | RK-13 | inhibition | - | culture | - | 0.01 µg/mL | Encephalitozoon intestinalis | 0%
N#Cc1ccc(C(=O)Nc2nnc(NCCCCc3ccccc3)s2)cc1 | - | - | - | IC50 | - | target | Polymerase | - | Human cytomegalovirus | <25 µM
CO[C@@H]1[C@H](OC(=O)NC(=O)CCl)CC[C@]2(CO2)[C@H]1[C@@]1(C)O[C@@H]1CC=C(C)C | - | - | RK-13 | inhibition | - | culture | - | 0.0005 µg/mL | Vittaforma corneae | 54.4%
CCOc1ccc2ccccc2c1C(=O)Nc1nnc(NCCCCc2ccccc2)s1 | - | - | - | IC50 | - | target | Polymerase | - | Human cytomegalovirus | >25 µM
CC(=O)Oc1ccccc1C(=O)Nc1ncc([N+](=O)[O-])s1 | - | - | RK-13 | inhibition | - | culture | - | 1 µg/mL | Vittaforma corneae | 42.3%
Nc1nc2c(ncn2[C@H]2CC[C@@H](COP(=O)(O)OP(=O)(O)OP(=O)(O)O)O2)c(=O)[nH]1 | nucleotide incorporation / radiometric | - | - | fold resistance | RT-N137Q | target | Reverse transcriptase | - | HIV | 10
O=C(c1ccccc1)N1C[C@H](CN2CCC(c3ccccc3)CC2)[C@@H](c2ccccc2)C1 | radiometric | - | - | fold resistance | CCR5-Y108A | target | CCR5 | - | - | 16.5
C[C@H](Cc1ccc(O)c(O)c1)[C@@H](C)Cc1ccc(O)c(O)c1 | broth dilution | CCC 124-2000 | - | MIC50 | - | culture | - | - | Candida parapsilosis | 250 µg/mL
Cc1ccnc2c1NC(=O)c1cccnc1N2C1CC1 | - | - | MT-4 | EC95 | RT-L74V A98G | culture | - | - | HIV-1 | 3 µM

A second listing of 2 rows from above:

structure,read by,strain,cell line,read-out,mutations,kind,target,dose,agent,result
O=C(Nc1nnc(NCCc2cnc[nH]2)s1)c1cc2ccccc2s1,-,-,-,IC50,-,target,Polymerase,-,Human cytomegalovirus,>25 µM
O=C(Nc1ncc([N+](=O)[O-])s1)c1ccccc1O,-,-,RK-13,inhibition,-,culture,-,0.001 µg/mL,Encephalitozoon intestinalis,27.2%